A mixed list of measured activities; the numbers were collected in NIAID ChemDB.

Shared fields: tests in culture; agent: Parainfluenza virus; read-out: EC50

ECn is the concentration giving n% inhibition of infection, replication or growth.

smiles	method	strain	cell line	value
Cc1cn([C@@H]2C[C@@H](O)[C@H](CO)O2)c(=O)[nH]c1=O	-	TYPE 3	MA-104	>100 µM
O=[N+]([O-])c1cc(Cl)c(Cl)cc1[N+](=O)[O-]	cytopathic effect	TYPE 3	HeLa	>4 µg/mL
Nc1nccc2c1ncn2[C@@H]1C[C@H](CO)[C@@H](O)[C@H]1O	cytopathic effect	TYPE 3	VERO	0.2 µg/mL
OC[C@H]1O[C@@H](n2cnc3cc(Cl)c(Cl)cc32)[C@H](O)[C@@H]1O	cytopathic effect	TYPE 3	HeLa	>10 µg/mL
CCN1C[C@]2(COC)CC[C@H](O)[C@]34C1[C@@](O)([C@@H](OC)[C@H]23)[C@@]1(O)C[C@H](OC)C2C[C@@H]4[C@@H]1[C@H]2O	cytopathic effect	TYPE 3	VERO	1–32 µg/mL
O[C@@H]1[C@@H](OCc2ccccc2)[C@@H](COCc2ccccc2)O[C@H]1n1cnc2cc(Cl)c(Cl)cc21	cytopathic effect	TYPE 3	HeLa	>10 µg/mL
C#Cc1c(C(N)=O)ncn1[C@@H]1O[C@H](CO)[C@@H](O)[C@H]1O	plaque count	TYPE 2/GREER	VERO	1.31 µg/mL
NC(=O)c1c[se]c([C@@H]2O[C@H](CO)[C@@H](O)[C@H]2O)n1	cytopathic effect	TYPE 3/C243	HeLa	1 µg/mL
CCN1C[C@]2(COC)CC[C@H](O)[C@]34C1[C@@](O)([C@@H](OC)[C@H]23)[C@@]1(O)C[C@H](OC)C2C[C@@H]4[C@@H]1[C@H]2OC(C)=O	cytopathic effect	TYPE 3	VERO	1–32 µg/mL
Nc1nccc2c1ncn2[C@@H]1C[C@H](CO)[C@@H](O)[C@H]1O	cytopathic effect	TYPE 3	VERO	1 µg/mL
OCCOC(CO)n1cnc2cc(Cl)c(Cl)cc21	cytopathic effect	TYPE 3	HeLa	>200 µg/mL
CC(=O)Oc1ccc([C@@H]2CC(=O)c3c(cc(OC(C)=O)c(-c4c(OC(C)=O)cc5c(c4OC(C)=O)C(=O)C[C@@H](c4ccc(OC(C)=O)cc4)O5)c3OC(C)=O)O2)cc1	neutral red	C243 (TYPE 3)	MA-104	>32 µg/mL
Nc1ncnc2c1ncn2[C@@H]1C[C@@H](O)[C@H](CO)O1	-	TYPE 3	MA-104	>100 µM
NC12CC3CC(CC(C3)C1)C2	plaque count	ATCC VR-93 (TYPE 3)	HeLa	100 µg/mL
COc1cc(NC(=O)Nc2cccc(CNC(=O)O[C@H]3CCOC3)c2)ccc1-c1cnco1	plaque count	TYPE 3	VERO	13.8 µM
C#Cc1c(C(N)=O)ncn1[C@@H]1O[C@H](CO)[C@@H](O)[C@H]1O	plaque count	TYPE 2/CA GREER	VERO	0.63 µg/mL
Nc1nc2c(ncn2COCOCP(=O)(O)O)c(=O)[nH]1	neutral red	C243 (TYPE 3)	-	3 µg/mL
COc1cc(O)c2c(=O)c3cccc(O)c3n(C)c2c1OC	plaque count	TYPE 2	VERO	>20 µg/mL
O[C@@H]1CC(n2cnc3cc(Cl)c(Cl)cc32)OC[C@@H]1O	cytopathic effect	TYPE 3	HeLa	>150 µg/mL

A second listing of 2 rows from above:

smiles | method | strain | cell line | value
Cc1cn([C@@H]2C[C@@H](O)[C@H](CO)O2)c(=O)[nH]c1=O | - | TYPE 3 | MA-104 | >100 µM
CC(=O)Oc1ccc([C@@H]2CC(=O)c3c(cc(OC(C)=O)c(-c4c(OC(C)=O)cc5c(c4OC(C)=O)C(=O)C[C@@H](c4ccc(OC(C)=O)cc4)O5)c3OC(C)=O)O2)cc1 | neutral red | C243 (TYPE 3) | MA-104 | >32 µg/mL

An empty or dashed field is not shown. Two numbers with a dash give a range or band. Neighbouring rows are from separate reports.